Measurements: ChEMBL document CHEMBL1129642, “Design, synthesis, and evaluation of 2 beta-alkenyl penam sulfone acids as inhibitors of beta-lactamases” (J Med Chem, 1996)

Chains of the proteins cited; added tags and fusions are not shown. Residues count along the entry.
UniProt P05364, whole entry: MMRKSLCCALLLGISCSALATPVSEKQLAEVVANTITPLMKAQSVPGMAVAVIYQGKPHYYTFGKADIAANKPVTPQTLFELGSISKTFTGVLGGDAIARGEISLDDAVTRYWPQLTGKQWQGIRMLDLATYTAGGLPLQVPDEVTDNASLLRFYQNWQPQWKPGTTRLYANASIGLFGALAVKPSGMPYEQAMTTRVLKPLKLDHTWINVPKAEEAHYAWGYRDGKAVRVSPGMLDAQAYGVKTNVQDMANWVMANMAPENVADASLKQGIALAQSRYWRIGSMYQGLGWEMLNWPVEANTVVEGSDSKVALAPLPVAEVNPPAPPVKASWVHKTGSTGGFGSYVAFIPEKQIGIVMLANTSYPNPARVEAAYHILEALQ
UniProt Q53729, 1-716: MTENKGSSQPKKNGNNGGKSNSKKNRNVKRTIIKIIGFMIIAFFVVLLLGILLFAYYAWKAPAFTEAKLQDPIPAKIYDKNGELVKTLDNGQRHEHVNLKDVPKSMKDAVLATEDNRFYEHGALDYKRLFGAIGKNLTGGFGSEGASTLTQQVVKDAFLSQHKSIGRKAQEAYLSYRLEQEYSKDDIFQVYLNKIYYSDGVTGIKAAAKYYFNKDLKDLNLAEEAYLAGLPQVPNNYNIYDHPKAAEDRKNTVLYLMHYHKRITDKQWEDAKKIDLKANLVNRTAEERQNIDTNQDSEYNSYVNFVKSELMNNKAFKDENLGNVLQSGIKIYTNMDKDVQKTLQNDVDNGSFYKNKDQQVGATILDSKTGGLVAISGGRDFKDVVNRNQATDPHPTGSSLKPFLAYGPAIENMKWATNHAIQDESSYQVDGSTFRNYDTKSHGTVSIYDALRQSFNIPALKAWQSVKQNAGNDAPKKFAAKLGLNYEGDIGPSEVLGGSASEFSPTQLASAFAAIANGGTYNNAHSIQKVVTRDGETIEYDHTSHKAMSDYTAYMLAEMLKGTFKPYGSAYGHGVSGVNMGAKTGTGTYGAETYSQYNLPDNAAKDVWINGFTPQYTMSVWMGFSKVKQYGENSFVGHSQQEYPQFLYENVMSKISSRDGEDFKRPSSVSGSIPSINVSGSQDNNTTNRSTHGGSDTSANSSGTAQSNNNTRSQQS

Experiments:
[1] = biological target: Beta-lactamase (Enterobacter cloacae, UniProt P05364); assay: Compound was tested for inhibition of Beta-lactamase from Enterobacter cloacae 908R
[2] = biological target: Penicillin-binding protein 2 (Staphylococcus aureus, UniProt Q53729); assay: Compound was tested for inhibition of 604 (Cephalosporin resistant mutants of Penicillin-binding protein 2) from Streptococcus pneumoniae

In the case of `C[C@]1(C=CC#N)[C@H](C(=O)O)N2C(=O)C[C@H]2S1(=O)=O` [Ro-481220], the IC50 [1] is reported as 0.41 µM and the IC50 [2] is reported as 280 µM.
